Anti-infective test results gathered from many reports (values: NIAID ChemDB through PubChem).

All rows: growth or infection tests; species: Cryptococcus neoformans; read-out: EC50

An empty or dashed field is not shown. Rows are shuffled and stem from different studies. ECn is the concentration giving n% inhibition of infection, replication or growth.

compound	strain or isolate	result
COc1c(O)c2c(=O)cc(OC)c3c4c(OC)cc(=O)c5c(O)c(OC)c6c(c(c1CC(C)(O)C6C(C)=O)c23)c54		>100 µg/mL
CN(CC#CC#CC(C)(C)C)c1cccc2c1CCC(=O)N2	CY1059	>200 µg/mL
COc1cc2ccnc3c2c(c1OC(=O)N1CCCC1)N(C)C=C3		>15 µg/mL
c1ccc(CCCCCn2c3ccccc3c3nc4ccccc4cc32)cc1	ATCC 90113	9 µg/mL
COc1cc2ccnc3c2c(c1OC(=O)c1ccc(OC(F)(F)F)cc1)N(C)C=C3		6.5 µg/mL
COc1cc(NC(C)CCCN)c2nc(C(C)(C)C)cc(C)c2c1Oc1cccc(C(F)(F)F)c1		2 µg/mL
CC(=O)c1c(O)c(C)c(O)c(C=O)c1O		>20 µg/mL
Cn1c2ccccc2c2c1cc1ccccc1[n+]2C	ATCC 90113	6.3 µg/mL
CC(C)=CCc1c(O)c(C=O)c(O)c(C(=O)/C(C)=C/O)c1O		>20 µg/mL
COc1ccc2[nH+]c3c4ccccc4n(CCCCCC4CCCCC4)c3cc2c1	ATCC 90113	>50 µg/mL
C[C@@H]1CCC2(OC1)OC1CC3C4C[C@H](OC5O[C@@H](CO)[C@H](O)[C@@H](O)[C@@H]5O)[C@H]5C[C@@H](OC6O[C@H](CO)[C@@H](O)[C@H](O)[C@H]6O)CC[C@]5(C)C4CC[C@]3(C)C1[C@@H]2C	ATCC 90113	8.5 µg/mL
CC(C(O)(Cn1cncn1)c1ccc(F)cc1F)S(C)(=O)=O	B4500 (AZOLE-S)	0.4 µM
COc1cc2ccnc3c2c(c1OC(=O)c1ccc(C)cc1)N(C)C=C3		10 µg/mL
CC(C)CC(=O)c1c(O)cc(O)c(C=O)c1O		>20 µg/mL
CCCCCCCC/C=C/CCCCCCCCC(=O)Oc1c(OC)cc2ccnc3c2c1N(C)C=C3		>15 µg/mL
COc1ccc2c(c1)cc1c(c3ccccc3n1C)[n+]2C	ATCC 90113	4.3 µg/mL
CCCCc1oc2ccccc2c1C(=O)c1cc(I)c(OCCN(CC)CC)c(I)c1	JEC21	<5 µM
CC(C)CC(=O)c1c(O)c(C=O)c(O)c(C=O)c1O		>20 µg/mL
c1ccc(CCCCC[n+]2c3ccccc3cc3[nH]c4ccccc4c32)cc1	ATCC 90113	1.3 µg/mL

A second listing of 2 rows from above:

compound,strain or isolate,result
c1ccc(CCCCCn2c3ccccc3c3nc4ccccc4cc32)cc1,ATCC 90113,9 µg/mL
C[C@@H]1CCC2(OC1)OC1CC3C4C[C@H](OC5O[C@@H](CO)[C@H](O)[C@@H](O)[C@@H]5O)[C@H]5C[C@@H](OC6O[C@H](CO)[C@@H](O)[C@H](O)[C@H]6O)CC[C@]5(C)C4CC[C@]3(C)C1[C@@H]2C,ATCC 90113,8.5 µg/mL